Measured values from several laboratories, pooled; numbers as filed in NIAID ChemDB.

Shared fields: target-level tests

Inhibition is in % at the dose shown (toxicity tests: loss of growth or viability). Conditions beyond the fields shown may differ between rows. ICn: concentration for n% inhibition. Blank or dashed fields: not listed here.

structure | method | endpoint | strain or isolate | protein | tested at | species | value
S=C(N/N=C/c1ccccn1)NNC(=S)Nc1ccccc1Cl |  | IC50 |  | Ribonucleotide reductase |  | Herpes simplex virus 1 | <5 µM
O=c1ccn([C@@H]2O[C@H](COP(=O)(O)O)[C@@H](O)[C@H]2O)c(=O)[nH]1 |  | IC50 |  | DNA polymerase |  | Herpes simplex virus 1 | <2000 µM
Nc1nc(-c2ccc(NC(=O)CN(CC3CCCCC3)C(=O)COc3ccccn3)cc2)cs1 |  | IC50 | KOS | Helicase-primase |  | Herpes simplex virus 1 | 0.77 µM
CC[C@@H](N(C)C(=O)[C@@H](NC(=O)[C@@H](CC(=O)[C@@H](NC(=O)[C@H](C(C)C)N(C)C(=O)[C@@H](CC1CCCCC1)C(C)C)C(C)(C)C)CC(=O)C(C)(C)C)C1(C(=O)O)CCCC1)C(C)(C)C |  | IC50 |  | Ribonucleotide reductase |  | Herpes simplex virus 1 | 0.123 µM
C/C(=N\NC(=S)NNC(=S)Nc1cccc(C(F)(F)F)c1)c1ccccn1 |  | IC50 |  | Ribonucleotide reductase |  | Herpes simplex virus 1 | >5 µM
Nc1nc(=O)n([C@@H]2O[C@H](CO)[C@@H](O)[C@@H]2F)cc1/C=C/Br |  | inhibition | G | Thymidine kinase | 200 µM | Herpes simplex virus 2 | 0%
Nc1nc(-c2ccc(NC(=O)CCN(Cc3cccc(F)c3)C(=O)c3ccccc3)cc2)cs1 |  | IC50 | F | Helicase-primase |  | Herpes simplex virus 1 | 1.3 µM
Cc1c(NC(=O)OC(C)(C)C)ccc2nc(N3CCCC3(OCc3ccccc3)C(=O)N(C)CCc3cccnc3)oc(=O)c12 |  | IC50 |  | Protease |  | Herpes simplex virus 1 | >20 µM
C[C@@H]1CCC[C@H](C)C1NC(=O)N[C@H](C(=O)C[C@@H](CC(=O)C(C)(C)C)C(=O)N[C@H](C(=O)NCC(C)(C)C)C1(C(=O)O)CCCC1)C(C)(C)C | radioligand binding / binding | IC50 |  | Ribonucleotide reductase |  | Herpes simplex virus 1 | <0.001 µM
Nc1nc2c(ncn2COCCOP(=O)(O)OP(=O)(O)OP(=O)(O)O)c(=O)[nH]1 |  | Ki |  | DNA polymerase |  | Herpes simplex virus 1 | 0.07 µM
Nc1nc(=O)n([C@@H]2O[C@H](CO)[C@@H](O)[C@@H]2F)cc1/C=C/C(=O)O |  | inhibition | G | Thymidine kinase | 200 µM | Herpes simplex virus 2 | 0%
C#C[C@H]1O[C@@H](n2cc(C)c(=O)[nH]c2=O)C[C@@H]1O |  | IC50 | B3 | Thymidine kinase |  | Herpes simplex virus 1 | 7 µM
C/C(=N\NC(=S)NNC(=S)Nc1cccc(Br)c1)c1ccccn1 |  | IC50 |  | Ribonucleotide reductase |  | Herpes simplex virus 1 | >5 µM
Cc1cn([C@@H]2O[C@H](CO)[C@@H](O)[C@@H]2F)c(=O)[nH]c1=O |  | Ki | 333 | DTHD kinase |  | Herpes simplex virus 2 | 2.5 µM
COc1c(Cl)cccc1NC(=S)NNC(=S)N/N=C(\C)c1ccccn1 |  | IC50 |  | Ribonucleotide reductase |  | Herpes simplex virus 1 | >5 µM
O=c1[nH]c(=O)n([C@@H]2O[C@H](CO)[C@@H](O)[C@@H]2O)cc1/C=C/Br |  | inhibition | 91075 | Thymidine kinase | 100 µM | Herpes simplex virus 1 | 14%
Nc1nc(-c2ccc(NC(=O)CN(Cc3ccncc3)C(=O)C3CCCCC3)cc2)cs1 |  | IC50 |  | Helicase |  | Herpes simplex virus 1 | 0.1 µM
Cc1cn([C@@H]2O[C@H](CO)[C@@H](O)[C@@H]2F)c(=O)nc1N |  | IC50 | G | Thymidine kinase |  | Herpes simplex virus 2 | >200 µM
Nc1nc(N)c2ncn([C@@H]3O[C@H](COP(=O)(O)OP(=O)(O)O)[C@@H](O)[C@H]3O)c2n1 |  | IC50 |  | DNA polymerase |  | Herpes simplex virus 1 | <2000 µM
Nc1nc(=O)n([C@@H]2O[C@H](CO)[C@@H](O)[C@@H]2F)cc1/C=C/I |  | IC50 | G | Thymidine kinase |  | Herpes simplex virus 2 | >200 µM
C/C=C/c1cn([C@H]2C[C@H](O)[C@@H](CO)O2)c(=O)[nH]c1=O |  | inhibition | C42 | Thymidine kinase | 100 µM | Herpes simplex virus 1 | 100%
O=C(NNC(=S)N/N=C/c1ccccn1)Nc1ccccc1Cl |  | IC50 |  | Ribonucleotide reductase |  | Herpes simplex virus 1 | >5 µM
Cc1c(NC(=O)OC(C)(C)C)ccc2nc(N(CCc3ccccc3)C(=O)N(C)CCc3ccncc3)oc(=O)c12 |  | IC50 |  | Protease |  | Herpes simplex virus 1 | 0.9 µM
C/C=C/c1cn([C@@H]2O[C@H](CO)[C@@H](O)[C@@H]2O)c(=O)[nH]c1=O |  | inhibition | 91075 | Thymidine kinase | 5 µM | Herpes simplex virus 1 | <0%
C/C(=N\NC(=S)NNC(=S)Nc1ccc(C(F)(F)F)cc1)c1ccccn1 |  | IC50 |  | Ribonucleotide reductase |  | Herpes simplex virus 1 | <5 µM
CC[C@@H](NC(=O)[C@@H](NC(=O)[C@H](CC(=O)N1CCCC1)NC(=O)[C@@H](NC(=O)NC1[C@H](C)CCC[C@@H]1C)C(C)(C)C)C1(C(=O)O)CCCC1)C(C)(C)C | radioligand binding / binding | IC50 |  | Ribonucleotide reductase |  | Herpes simplex virus 1 | <0.001 µM
O=c1[nH]c(=O)n([C@@H]2O[C@H](CO)[C@@H](O)[C@@H]2F)cc1/C=C/I |  | IC50 | G | Thymidine kinase |  | Herpes simplex virus 2 | >200 µM
Nc1nc(-c2ccc(NC(=O)CCN(C(=O)c3cccnc3)C3Cc4ccccc4C3)cc2)cs1 |  | IC50 | F | Helicase-primase |  | Herpes simplex virus 1 | 2.6 µM
O=c1[nH]cnc2c1ncn2[C@H]1CC[C@@H](COP(=O)(O)O)O1 |  | IC50 |  | DNA polymerase |  | Herpes simplex virus 1 | <2000 µM
CCCC(CCC)NC(=O)N[C@H](C(=O)C[C@@H](CC(=O)C(C)(C)C)C(=O)N[C@H](C(=O)N[C@H](CC)C(C)(C)C)C1(C(=O)O)CCCC1)C(C)(C)C | radioligand binding / binding | IC50 |  | Ribonucleotide reductase |  | Herpes simplex virus 1 | <0.001 µM
Cc1ccc(S(=O)(=O)N[C@@H](C)c2nc3ccsc3c(=O)o2)cc1 | HPLC | IC50 |  | HSV-2 protease |  | Herpes simplex virus 2 | >10 µM
C[C@H](c1ccccc1)N(CC(=O)Nc1ccc(-c2csc(N)n2)cc1)C(=O)Cc1ccncc1 |  | IC50 | KOS | Helicase-primase |  | Herpes simplex virus 1 | 0.98 µM
C/C(=N\NC(=S)NNC(=S)Nc1ccccc1C(F)(F)F)c1ccccn1 |  | IC50 |  | Ribonucleotide reductase |  | Herpes simplex virus 1 | >5 µM
Cc1c(NC(=O)OC(C)(C)C)ccc2nc(N(CC(C)C)C(=O)NCc3cccnc3)oc(=O)c12 |  | IC50 |  | Protease |  | Herpes simplex virus 1 | >20 µM
Cc1cn([C@@H]2O[C@H](CO)[C@@H](O)[C@@H]2O)c(=O)[nH]c1=O |  | Ki | 333 | DTHD kinase |  | Herpes simplex virus 2 | 43.37 µM
Nc1ccn([C@@H]2O[C@H](COP(=O)(O)O)[C@@H](O)[C@H]2O)c(=O)n1 |  | inhibition |  | DNA polymerase | 2000 µM | Herpes simplex virus 1 | 89.7%
Nc1nc(-c2ccc(NC(=O)CCN(C(=O)c3cccnc3)C3CCc4ccccc43)cc2)cs1 |  | IC50 | F | Helicase-primase |  | Herpes simplex virus 1 | 10 µM
O=c1[nH]c(=O)n([C@@H]2O[C@H](CO)[C@@H](O)[C@@H]2O)cc1/C=C/Br |  | Ki | KOS | DTHD kinase |  | Herpes simplex virus 1 | 0.94 µM
Nc1nc2c(ncn2[C@@H]2O[C@H](CO)[C@@H](OP(=O)(O)O)[C@H]2O)c(=O)[nH]1 |  | inhibition |  | DNA polymerase | 2000 µM | Herpes simplex virus 1 | 85.9%
C/C(=N\NC(=S)NNC(=S)NCCCN1CCOCC1)c1ccccn1 |  | IC50 |  | Ribonucleotide reductase |  | Herpes simplex virus 1 | >5 µM
Cc1c(NC(=O)OC(C)(C)C)ccc2nc(NCC(Cc3ccccc3)C(=O)N(C)c3ccccn3)oc(=O)c12 |  | IC50 |  | Protease |  | Herpes simplex virus 1 | 1 µM
C[C@H](NC(=O)NCc1ccccc1)c1nc2ccsc2c(=O)o1 | HPLC | IC50 |  | HSV-2 protease |  | Herpes simplex virus 2 | >10 µM